Test results as given in PubChem BioAssay AID602346 (Broad Institute, 2012).
This is a selection; strong and weak results do not stand in their true shares. The source made the active and inactive calls. Cut-off read from the data, not from the text of the source: active = inhibition above about 50% (passing the limit was not always enough); inconclusive = no clear call, values can overlap the other calls; inactive = below about 31%.

Assay: blockers of Vif multimerization in cells – imaging, HEK293T, single point, primary screen (AID 602346)
Conditions: Vif self-association by quenched fluorescence, 24 h, at 7.49 µM, hits give high values

SMILES | inhibition
Cc1ccc(C(=O)NCC2(N3CCCCC3)CCCCC2)o1 | inactive: -1.83%
Fc1ccccc1NC1CCN(Cc2ccccc2)CC1 | inactive: 4.43%
Cc1ccc(NC2(C#N)CCN(Cc3ccccc3)CC2)cc1 | inactive: -5.15%
CC(=O)N(c1ccccc1)C1CCNCC1 | inactive: -7.41%
O=c1[nH]c2ccccc2n1C1CCN(C(c2ccnc3ccccc23)c2nnnn2C2CCCCC2)CC1 (stereo not drawn) | inactive: 6.16%
COc1cc(OC)cc(C(=O)NCC2(N3CCCCC3)CCCCC2)c1 | inactive: 19.5%
O=C(NCC1(N2CCCCC2)CCCCC1)c1ccco1 | inactive: -3.93%
Cn1c(=O)[nH]cc(N(CCCl)CCCl)c1=O | inactive: -1.96%
CN(C)c1ccc(C(=O)NCC2(N3CCCCC3)CCCCC2)cc1 | inactive: -3.63%
Cc1ccccc1NC1(C#N)CCN(Cc2ccccc2)CC1 | inactive: 8.75%
CC(C)(C)n1nnnc1C(c1ccnc2ccccc12)N1CCC(n2c(=O)[nH]c3ccccc32)CC1 (stereo not drawn) | inactive: -1.1%
CCN1CCC(Nc2cccc(F)c2)CC1 | inactive: -6.11%
CC(C)(C)OC(=O)N1CCC(Nc2ccccc2)CC1 | inactive: 4.72%
O=C(O)C1(Nc2ccccc2)CCN(Cc2ccccc2)CC1 | inactive: 2.5%
CCCOc1ccc(C(=O)NCC2(N(C)C)CCCCC2)cc1 | inactive: -19%
O=c1[nH]c2ccccc2n1C1CCN(C(c2cc3ccccc3o2)c2nnnn2C2CCCC2)CC1 (stereo not drawn) | inactive: 5.38%
CCOc1ncccc1C(=O)NCC1(N2CCOCC2)CCCCC1 | inactive: -2.41%
CN1CCC(Nc2ccc(F)c(Cl)c2)CC1 | inactive: 0.577%
CN1CCC(Nc2ccc(Cl)cc2)CC1 | inactive: 1.75%
COc1cccc(C(c2nnnn2C2CCCC2)N2CCC(n3c(=O)[nH]c4ccccc43)CC2)c1OC (stereo not drawn) | inactive: 0.378%
COc1cc(OC)cc(C(=O)NCC2(N3CCOCC3)CCCCC2)c1 | inactive: 4.98%

SMILES | inhibition
COc1cccc(C(=O)N(c2cc(C)cc(C)c2)C2CCN(C(=O)OC(C)(C)C)CC2)c1 | inactive: -3.88%
CCC(CO)(C(=O)OC1CN2CCC1CC2)c1ccccc1 (stereo not drawn) | inactive: 0.345%
COc1cc(C(=O)NCC2(N3CCOCC3)CCCCC2)cc(OC)c1C | inactive: -2.02%
O=C(NCC1(N2CCOCC2)CCCCC1)c1cc(Br)ccc1Cl | inactive: 11.5%
O=C(OC1CN2CCC1CC2)C1c2ccccc2C=Cc2ccccc21 (stereo not drawn) | inactive: -5.77%
CCOC(=O)N1CCC(Nc2ccc(C)cc2)CC1 | inactive: -4.33%
N/C(=N\O)c1c(N)no[n+]1[O-] | inactive: -0.351%
N#Cc1ccc(C(=O)NCC2(N3CCCCC3)CCCCC2)cc1 | inactive: -1.34%
CC(C)(C)OC(=O)N1CCC(N(C(=O)c2ccccc2)c2ccc(Cl)cc2)CC1 | inactive: 3.02%
CC(C)(C)n1nnnc1C(c1cccc2ccccc12)N1CCC(n2c(=O)[nH]c3ccccc32)CC1 (stereo not drawn) | inactive: -5.45%
CN(C)C1(CNC(=O)c2cccc(C#N)c2)CCCCC1 | inactive: -0.282%
c1ccc(CN2CCC(Nc3ccccc3)CC2)cc1 | inactive: 5.21%
Cc1cc(N(CCCl)CCCl)ccc1C=O | inactive: 8.02%
CCCN1CCC(Nc2cc(OC)cc(OC)c2)CC1 | inactive: 8.71%
O=c1[nH]c2ccccc2n1C1CCN(C(c2ccccc2)c2nnnn2C2CCCC2)CC1 (stereo not drawn) | inactive: -7.34%
CCN1CCC(Nc2ccc(Cl)cc2)CC1 | inactive: -1.47%
N#CC1(Nc2ccccc2)CCN(CCc2ccccc2)CC1 | inactive: 6%
CSc1ccc(C(=O)NCC2(N3CCOCC3)CCCCC2)cc1 | inactive: -1.15%
O=C(NCC1(N2CCCCC2)CCCCC1)c1cccc([N+](=O)[O-])c1 | inactive: -3.71%
CC(C)(C)n1nnnc1C(c1ccccc1OC(F)(F)F)N1CCC(n2c(=O)[nH]c3ccccc32)CC1 (stereo not drawn) | inactive: 11.2%
O=C(NCC1(N2CCCCC2)CCCCC1)c1ccc(OC(F)F)cc1 | inactive: 6.8%

SMILES | inhibition
COc1cc(C(=O)NCC2(N3CCCCC3)CCCCC2)ccc1OC(F)F | inactive: -13.5%
O=C(NCC1(N2CCOCC2)CCCCC1)c1cc(=O)[nH]c2ccccc12 | inactive: 1.33%
CCCCn1nnnc1C(c1cccc2ccccc12)N1CCC(n2c(=O)[nH]c3ccccc32)CC1 (stereo not drawn) | inactive: 1.16%
CN1CCN(CCOC(=O)C(O)(c2ccccc2)c2ccccc2)CC1 | inactive: 4.09%
COc1ccc(NC2CCN(C(=O)OC(C)(C)C)CC2)cc1 | inactive: -0.264%
O=C(NCC1(N2CCCCC2)CCCCC1)c1cccc(C(F)(F)F)c1 | inactive: -6.38%
COc1cc(OC)c(C(=O)NCC2(N(C)C)CCCCC2)cc1OC | inactive: -1.36%
O=C(NCC1(N2CCOCC2)CCCCC1)c1cc(F)c(F)cc1Cl | inactive: -1.39%
CC(C)c1ccc(NC2CCN(C(=O)OC(C)(C)C)CC2)cc1 | inactive: -4.27%
CCCCn1nnnc1C(c1ccccc1OC(F)(F)F)N1CCC(n2c(=O)[nH]c3ccccc32)CC1 (stereo not drawn) | inactive: 6.24%
COc1ccc(CN(CCCl)CCCl)cc1Cl | inactive: -5%
CN(C)c1cccc(C(=O)NCC2(N3CCCCC3)CCCCC2)c1 | inactive: 0.507%
Cc1ccc(C(=O)NCC2(N(C)C)CCCCC2)o1 | inactive: 9.46%
CCCOc1ccc(C(=O)NCC2(N(C)C)CCCCC2)cc1OC | inactive: -8.99%
O=C(NCC1(N2CCCCC2)CCCCC1)c1cncc(Br)c1 | inactive: 2.02%
CN1CCC(Nc2cccc(F)c2)CC1 | inactive: -0.765%
CSc1ccccc1C(=O)NCC1(N2CCCCC2)CCCCC1 | inactive: 1.69%
Cc1cccc(NC2(C#N)CCN(Cc3ccccc3)CC2)c1 | inactive: -1.74%
COc1ccc(C(=O)NCC2(N3CCCCC3)CCCCC2)cc1 | inactive: 0.0295%
CC(C)(C)OC(=O)N1CCC(N(C(=O)c2ccccc2)c2ccc(F)cc2)CC1 | inactive: -5.06%
COc1ccc(C(=O)NCC2(N3CCCCC3)CCCCC2)c(OC)c1OC | inactive: -14.1%
